5 substances from patent US20260234738A1 can be followed below.

The target in experiment [1] is VSV G protein on VSV delta G pseudotyped virus-like particles (Vesicular stomatitis virus). As to the kind of experiment: MSD electrochemiluminescence, control VLPs on plate, supernatant 1:10, a-hFc.
Experiment [2] addresses SARS-COV-2 RBD-MMH (SARS-CoV-2).

In experiment [1], mAb10933 (antibody) registered a VSV-VLP Binding Signal (RLU) of 507 RLU.
Substance mAb10934 (antibody) yielded a VSV-VLP Binding Signal (RLU) in experiment [1] of 3880 RLU.
mAb10933: in experiment [2], the 50 nM Ag Bound (RU) came to 428 RU.
In experiment [1], mAb10989 (antibody) displayed a VSV-VLP Binding Signal (RLU) of 672 RLU.
Same read-out and setting: to mAb10987 (antibody) belongs 1840 RLU.
